For some of these results: Tags and fusion partners may be left off the protein sequences shown. For some of these results: Construct, isoform or probe ends are uncertain for at least one entry.
How the values were obtained:
[1] = molecular target: BirA (UniProt P06709); test: EMSA and competition; conditions: 20 uM biotin, 1 mM ATP, 5 mM Mg2+, BirA EMSA: 1 mM Tris-HCl pH 7.5, 0.1 mM EDTA, 0.2 mM DTT, 5 mM MgCl2, 10 mM KCl, 1 mM ATP (DIG Gel Shift Kit), recombinant protein, residues 1-321, protein details: N-terminal 6xHis, label: DIG, probe letters rebuilt from the primers and the genome
[2] = molecular target: T1, Fur (UniProt P0A9B1); test: EMSA; conditions: 100 uM Mn2+; BirA EMSA: 1 mM Tris-HCl pH 7.5, 0.1 mM EDTA, 0.2 mM DTT, 5 mM MgCl2, 10 mM KCl, 20 uM biotin, 1 mM ATP (DIG Gel Shift Kit); recombinant protein; residues 1-148; protein details: N-terminal 6xHis; probe letters rebuilt from the primers and the genome
T1 sequence (looked up): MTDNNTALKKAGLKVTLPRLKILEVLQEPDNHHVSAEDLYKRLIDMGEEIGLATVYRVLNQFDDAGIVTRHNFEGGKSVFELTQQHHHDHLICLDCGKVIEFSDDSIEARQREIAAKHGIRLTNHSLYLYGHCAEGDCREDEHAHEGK

Protein sequences, listed by entry. Tags and fused reporters are not part of them.
UniProt P06709, whole entry: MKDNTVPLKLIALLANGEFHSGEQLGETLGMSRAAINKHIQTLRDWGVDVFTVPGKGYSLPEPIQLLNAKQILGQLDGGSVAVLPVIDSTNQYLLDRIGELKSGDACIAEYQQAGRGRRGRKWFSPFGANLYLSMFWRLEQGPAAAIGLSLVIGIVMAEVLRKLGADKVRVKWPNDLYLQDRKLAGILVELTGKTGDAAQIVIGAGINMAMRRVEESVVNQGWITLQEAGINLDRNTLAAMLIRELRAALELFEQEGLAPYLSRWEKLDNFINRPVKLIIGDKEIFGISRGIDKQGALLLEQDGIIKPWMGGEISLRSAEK

Row | Sequence | binding result [1] | binding result [2]
1 | GCCCACCAGGACGACATACCGTCAACCAGGCGTCTGCCGTCAGACAAAATTAGCTCGCAACCTTCGGCGCTCGCCACCGGATAAACCGGTAGCGGGGAGGTCATGGATGTGTATGGGTGCCAGATATGGCGTTGGTCAAAGGCAAGATCGTCCGTTGTCATAATCGACTTGTAAACCAAATTGAAAAGATTTAGGTTTACAAGTCTACACCGAATTAACAACAAAAAACACGTTTTGGAGAAGCCCCATGGCTCACCGCCCACGCTGGACATTGTCGCAAGTCACAGAATTATTTGAAAAACCGTTGCTGGATCTGCTGTTTGAAGCGCAGCAGGTGCATCGCCAGCATTTCGATCCTCGTCAGGTGCAGGTCAGCACCTTGCTGTCGATTAAGACCGGAGCTTGTCCGGAAGATTGCAAATACTGCCCGCAAAGC (double strand) [bioO] | binds | 
2 | CTTTCTTTAGGGCGGTATTGTTATCAGTCATGCGGAATCTGGTCCTGTTACTAAGCGGTTCACTTCATTAGAAGAAGTGACAGAATTTGCTCTTGAGATAATGCGGTATCATTATAGAATTGCCACGCCTAAATGAAAACCACAAGTCCCTGGCAAATATTGTTAATAAAAACGTGGCACAGCTTACATTTACAACGGCAAGGCCACTTGAACACCGGGACATTGTACAGGTACAACGGCAAAAGTTACAAATTTGTAGCAATTATTTTGATTGGCATTATCTATTAATACGGCGTAGACATGAGTCTACGCCGCATCACATCAGGCATTGA (double strand) [fur promoter (O157)] | binds | 
3 | TTCGTCATTCAGACGCTGCCATTCCGGGCCATGTTTCGACTGCCACCAGCTCTCACTTCCTACTTTTAACGCCGTCACACCATAACCCCATGTTTACTGTGCAATTTTTCATTGATTGCAGAAATATATTGATAATATTATTGATAACTATTTGCATTTGCAATAGCGTAATGGCGCGCCGTGGGAAGCGCGGACATTAATTAACCAACTGCACTGCGTGTCTTTCAGGATCAAAGGTTTTCGCGGTAGCGGGATGCGTCGTGTTGATGACGACCATGCCCGACAGTTGCAATTCGTGGCAAAAATGCAGGAATAAAACA (double strand) [fepA promoter] |  | binds
4 | CTTTCTTTAGGGCGGTATTGTTATCAGTCATGCGGAATCTGGTCCTGTTACTAAGCGGTTCACTTCATTAGAAGAAGTGACAGAATTTGCTCTTGAGATAATGCGGTATCATTATAGAATTGCCACGCCTAAATGAAAACCACAAGTCCCTGGCAAATATTGTTAATAAAAACGTGGCACAGCTTACATTTACAACGGCAAGGCCACTTGAACACCGGGACATTGTACAGGTACAACGGCAAAAGTTACAAATTTGTAGCAATTATTTTGATTGGCATTATCTATTAATACGGCGTAGACATGAGTCTACGCCGCATCACATCAGGCATTGA (double strand) [fur promoter (O55)] | binds | 
